# Measurements: patent publication US20080199854
# The exact form of at least one protein or probe is not confirmed. At least one result comes from cells or an extract, where the contact may be indirect.
# Target: hsp90-a (UniProt P82995)
# Assay: pull-down
# Conditions: PNA strand, Cys-Bpa at N-term, Lys-amide at C-term, disulfide to TP10; protein in cells
row,Sequence,binding result
1,AAGCGCGGCTGCTCTAGCAGAA [Ank mRNA 5'-UTR region with annealed Ank 3 PNA],binds
2,TACGAAACCTCTAAATCAAGG [Ank mRNA 3' region with annealed Ank 1 PNA],binds
